{"source": "patent US20250092056A1", "about": "“URACIL DERIVATIVES HAVING VIRUS REPLICATION INHIBITORY ACTIVITY AND PHARMACEUTICAL COMPOSITION COMPRISING THE SAME” (Shionogi & Co., Ltd., priority 2022, published 2025)", "biological_target": "Recombinant SARS-CoV-2 3CL Protease (Severe acute respiratory syndrome coronavirus 2 (2019-nCoV) (SARS-CoV-2), UniProt P0DTD1)", "test": "Inhibitory activity test against SARS-CoV-2 3CL proteases", "assay_type": "biochemical", "details": "50% SARS-CoV-2 3CL protease inhibitory concentration", "data": [{"smiles": "Cc1cncc(-n2c(=O)c(-c3ccc(F)c(Cl)c3)c(N3CCC(C(F)F)CC3)n(CC#N)c2=O)n1", "note": "[Compound I-194]", "values": [{"measurement": "IC50", "value": "< 10", "unit": "nM"}]}]}
